Source: paper PMC7963221
pKd: −log10 of the molar value.

Molecular target: SARS-CoV-2 RBD (WT) displayed on the surface of yeast (SARS-CoV-2) (UniProt P0DTC2)
Test: FACS

## CB6/LY-CoV16
  pKd: 9.18
